Compound potency records, mixed from different reports. Data source: NIAID ChemDB in PubChem.

Common to all: tests in culture; agent: HIV-1; cells: CEM + CEM-SS; read-out: EC50

ECn: concentration that inhibits the pathogen or its effect by n%. Conditions beyond the fields shown may differ between rows. An empty or dashed field is not shown.

SMILES | strain | changes | method | value
CCc1c(C(=O)c2cc(C)cc(C)c2)n(CC2CC=CC2)c(=O)[nH]c1=O | NL4-3 | RT-L74V | cytopathic effect / XTT | 0.0002 µM
CN1N=C(N)c2cn([C@@H]3O[C@H](COP(=O)(O)O)[C@@H](O)[C@H]3O)c3ncnc1c23 | TP1 | - | XTT | 0.07 µM
CCCc1cc(=O)oc2c3c(c4c(c12)OC(C)(C)C=C4)O[C@@H](C)[C@H](C)[C@@H]3O | UC10-resistant (RT Y181C K101E) | RT-Y181C K101E | cytopathic effect / XTT | 4.4 µM
C/C=C/CSc1cc(NC(=S)c2ccsc2C)ccc1Cl | IIIB | - | XTT | 0.05 µM
Cc1c(Sc2ccccc2)n(COCCO)c(=O)[nH]c1=O | IIIB | RT-V90I T139I P225S | cytopathic effect / XTT | 69.5 µM
Cc1cn([C@H]2C[C@H](N=[N+]=[N-])[C@@H](CO)O2)c(=O)[nH]c1=O | NL4-3(RT-4XAZT) | RT-D67N K70R T215Y K219Q | cytopathic effect / XTT | 0.8 µM
Cc1ccnc2c1NC(=O)c1cccnc1N2C1CC1 | IIIB | RT-V90I T139I P225S | cytopathic effect / XTT | 0.01 µM
Cc1cn([C@H]2C[C@H](N=[N+]=[N-])[C@@H](CO)O2)c(=O)[nH]c1=O | KELL | - | cytopathic effect / MTT | 0.007 µM
C/C=C/CSc1cc(NC(=S)c2ccsc2C)ccc1Cl | 4xAZT | - | cytopathic effect / XTT | 0.02 µM
Cc1cn([C@H]2C[C@H](N=[N+]=[N-])[C@@H](CO)O2)c(=O)[nH]c1=O | NL4-3 | RT-L100I | cytopathic effect / XTT | 0.003 µM
CCCc1cc(=O)oc2c3c(c4c(c12)OC(C)(C)C=C4)O[C@@H](C)[C@H](C)[C@@H]3O | NL4-3 | RT-L74V | XTT | 0.2 µM
Cc1ccnc2c1NC(=O)c1cccnc1N2C1CC1 | RF | - | cytopathic effect / XTT | 0.2 µM
CCCc1cc(=O)oc2c3c(c4c(c12)OC(C)(C)C=C4)O[C@H](C)[C@@H](C)[C@@H]3O | Dihydrocostatolide-resistant (RT-L100I) | RT-L100I | XTT | 7.2 µM
CCc1c(Sc2ccccn2)n(COCc2ccccc2)c(=O)[nH]c1=O | UC781-R (RT-Y181C) | RT-Y181C | cytopathic effect / XTT | 3.1 µM
Cc1ccnc2c1NC(=O)c1cccnc1N2C1CC1 | NL4-3 | RT-V106I | XTT | >2 µM
CCc1c(Sc2ccccn2)n(COCc2ccccc2)c(=O)[nH]c1=O | NL4-3 | RT-V179D | cytopathic effect / XTT | 0.14 µM

Again, the opening 2 rows:

SMILES | strain | changes | method | value
CCc1c(C(=O)c2cc(C)cc(C)c2)n(CC2CC=CC2)c(=O)[nH]c1=O | NL4-3 | RT-L74V | cytopathic effect / XTT | 0.0002 µM
CN1N=C(N)c2cn([C@@H]3O[C@H](COP(=O)(O)O)[C@@H](O)[C@H]3O)c3ncnc1c23 | TP1 | - | XTT | 0.07 µM